Results deposited as PubChem BioAssay AID1259414 (Drosophila RNAi Screening Center, 2018)
The screen tested about 24,000 reagents; this is a random part of those with a known target gene and a result. Of all reagents, about 1,210 (5%) were called active. 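Inactive calls also include excluded dsRNAs with several or no targets, genes unexpressed in JW18, and well A1, regardless of score.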 Reagent sequences are not shown.

Screen: 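Host factors increasing or decreasing Wolbachia levels in cultured fly cells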 (primary screen)
Cells: Drosophila JW18 cells infected with Wolbachia
Reagent: long dsRNA against Drosophila genes, 0.25 µg dsRNA per well of a 384-well plate
Time to read-out: 5 days
Conditions: cells persistently infected with Wolbachia before knock-down; no added drug
Measurement: 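Imaged fluorescence in situ signal for Wolbachia 23S rRNA per DAPI-counted host cell, given as a robust z-score within each plate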
Scale: Wolbachia per cell robust z: higher = more Wolbachia per host cell than the plate typical
Rule for the call: 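Active if absolute robust z reaches 1.5 in two or more of three replicates, leaving out multi- or no-target dsRNAs, genes unexpressed in JW18 and A1 wells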

target gene | dsRNA | Wolbachia per cell robust z, rep 1 | Wolbachia per cell robust z, rep 2 | Wolbachia per cell robust z, rep 3 | activity call
spt4 | DRSC07696 | -1.78 | -2.06 | -3.38 | active
spt4 | DRSC41571 | -1.1 | 0.587 | -0.628 | inactive
Ugt35E2 | DRSC16083 | 0.748 | 0.504 | -0.117 | inactive
Ugt35E2 | DRSC27356 | 0.355 | 0.342 | 0.53 | inactive
RpL23 | DRSC04648 | 1.64 | 0.554 | 1.18 | inactive
CG13931 | DRSC08400 | -0.361 | 1.04 | 0.766 | inactive
CG13931 | DRSC25534 | 0.842 | 0.183 | -0.918 | inactive
CG8306 | DRSC07141 | 0.587 | 1.24 | 0.00455 | inactive
CG8306 | DRSC24656 | -1.37 | 1.04 | -1.77 | inactive
CG4783 | DRSC15644 | 1.14 | -0.653 | 0.917 | inactive
CG9663 | DRSC00724 | -0.306 | -3.22 | -0.944 | inactive
Cpsf100 | DRSC14146 | 1.45 | -0.216 | -1.47 | inactive
Cpsf100 | DRSC28396 | 1.13 | 1.01 | 0.47 | inactive
Dif | DRSC03316 | -1.73 | -0.28 | -0.26 | inactive
CG15120 | DRSC06542 | -0.582 | -2.9 | -0.444 | inactive
Ilp8 | DRSC10076 | 1.54 | 0.624 | -0.558 | inactive
Zasp52 | DRSC06269 | 0.711 | 0.755 | -2.05 | inactive
Zasp52 | DRSC07121 | -0.0243 | 0.325 | -0.57 | inactive

Just “Wolbachia per cell robust z, rep 1” (2 entries from above):
Cpsf100 [DRSC14146] = 1.45
Cpsf100 [DRSC28396] = 1.13

Additional entries:
target gene | dsRNA | Wolbachia per cell robust z, rep 1 | Wolbachia per cell robust z, rep 2 | Wolbachia per cell robust z, rep 3 | activity call
eIF1A | DRSC16937 | 1.34 | 1.14 | 1.52 | inactive
Tektin-C | DRSC09741 | 0.889 | -0.548 | 2.69 | inactive
Tektin-C | DRSC26608 | 1.21 | 0.408 | 0.0688 | inactive
CG31664 | DRSC22084 | -0.126 | -0.865 | 0.633 | inactive
Arv1 | DRSC11491 | 0.58 | -0.382 | 0.302 | inactive
eys | DRSC00402 | -0.91 | -4.99 | 1.05 | inactive
eys | DRSC00403 | -0.496 | 0.782 | 0.325 | inactive
eys | DRSC00695 | -6.22 | -0.286 | -0.709 | inactive
TwdlO | DRSC16043 | -3.44 | -2.04 | 0.663 | inactive
CG1578 | DRSC19729 | -5.28 | 0.0767 | -0.656 | inactive
CG1578 | DRSC26369 | -0.908 | -0.283 | -1.29 | inactive
